For the experiment, the system named is Human immunodeficiency virus. Briefly: Selectivity ratio of IC50 for full length HIV reverse transcriptase polymerase activity to IC50 for full length HIV RT-RNase H activity.
Turning to `COc1cc2c(cc1-c1ccco1)CC(=O)N(O)C2=O`, the Ratio IC50 is under 6. For `O=C(Cc1ccc(F)cc1)Nc1ccc2c(c1)CC(=O)N(O)C2=O`, the Ratio IC50 was in the range of 2 to 7. The value for `O=C1Cc2c(Cc3ccc(C(F)(F)F)cc3)cccc2C(=O)N1O` was 12; that for `Cc1ccc(Cc2cccc3c2CC(=O)N(O)C3=O)cc1` was 12. Turning to `COc1cc2c(cc1-c1ccc(F)cc1F)CC(=O)N(O)C2=O`, the Ratio IC50 is under 6. In the case of `O=C1Cc2c(Cc3ccc(F)cc3F)cccc2C(=O)N1O`, the Ratio IC50 was 12.

Turning to `O=C1Cc2c(Cc3ccc(Br)cc3)cccc2C(=O)N1O`, the Ratio IC50 amounted to 12.

In the case of `O=C(Nc1ccc2c(c1)CC(=O)N(O)C2=O)c1ccccc1`, the Ratio IC50 was in the range of 2 to 7. As for `COc1cc2c(cc1-c1ccccc1)CC(=O)N(O)C2=O`, the Ratio IC50 is under 6. The value for `COc1cc2c(cc1-c1ccc(F)cc1)CC(=O)N(O)C2=O` was under 6; that for `O=C(Cc1ccccc1)Nc1ccc2c(c1)CC(=O)N(O)C2=O` was 7. The value for `O=C(Nc1ccc2c(c1)CC(=O)N(O)C2=O)c1ccc(F)cc1` was 2 to 7.

The record behind these values is ChEMBL document CHEMBL4033629, “Synthesis, biological evaluation and molecular modeling of 2-Hydroxyisoquinoline-1,3-dione analogues as inhibitors of HIV reverse transcriptase associated ribonuclease H and polymerase” (Eur J Med Chem, 2017).
